Reference: patent publication US20260109712A1, “RIFAMYCINS FOR NONTUBERCULOUS MYCOBACTERIA” (priority 2022, published 2026)
Entries after “also recorded” stand apart in the source; their conditions may differ.

Test system: ArrMab
Experiment: LC-MS in vitro ADP-ribosylation assay with recombinant ArrMab
Settings: incubation with ArrMab and NAD+, 40 minutes

Compound | ADP-ribosylation by ArrMab | ADP-ribosylation by ArrMab (listed as Rifabutin)
CCC(C)C(=O)OC1C(C)C(OC)C=COC2(C)Oc3c(C)c(O)c4c(c3C2=O)C2=NC3(CCN(CC(C)C)CC3)NC2=C(NC(=O)C(C)=CC=CC(C)C(O)C(C)C(O)C1C)C4=O (mixture of isomers) [5k] | fully converted; also recorded: failed to block ADP-ribosylation | 
CO[C@H]1/C=C/O[C@@]2(C)Oc3c(C)c(O)c4c(c3C2=O)C2=NC3(CCN(CC(C)C)CC3)NC2=C(NC(=O)/C(C)=C/C=C/[C@H](C)[C@H](O)[C@@H](C)[C@@H](O)[C@@H](C)[C@H](OC(=O)c2ccccc2)[C@@H]1C)C4=O [5a, 25-O-benzoyl rifabutin] | no ArrMab-catalyzed transformation was observed; also recorded: No ADP-ribosylated adducts were observed | 
CCC(CC)C(=O)O[C@H]1[C@H](C)[C@H](O)[C@H](C)[C@@H](O)[C@@H](C)/C=C/C=C(\C)C(=O)NC2=C3NC4(CCN(CC(C)C)CC4)N=C3c3c(c(O)c(C)c4c3C(=O)[C@@](C)(O/C=C/[C@H](OC)[C@H]1C)O4)C2=O [5l] | fully converted; also recorded: failed to block ADP-ribosylation | 
CO[C@H]1/C=C/O[C@@]2(C)Oc3c(C)c(O)c4c(c3C2=O)C2=NC3(CCN(CC(C)C)CC3)NC2=C(NC(=O)/C(C)=C/C=C/[C@H](C)[C@H](O)[C@@H](C)[C@@H](O)[C@@H](C)[C@H](OC(=O)c2cccnc2)[C@@H]1C)C4=O [5m, 25-O-(3-pyridinecarbonyl)-25-O-desacetyrifabutin] | No ADP-ribosylated adducts were observed | 
CO[C@H]1/C=C/O[C@@]2(C)Oc3c(C)c(O)c4c(c3C2=O)C2=NC3(CCN(CC(C)C)CC3)NC2=C(NC(=O)/C(C)=C\C=C\[C@H](C)[C@H](O)[C@@H](C)[C@@H](O)[C@@H](C)[C@H](OC(C)=O)[C@@H]1C)C4=O [rifabutin, reference compound] | completely converted; also recorded: fully ADP-ribosylated | fully converted into the ADP-ribosyl adduct
